Assay results published in ChEMBL document CHEMBL1155893 (J Med Chem, 2008).

Amino acid sequences for entries named in this document (tags omitted). Residues count along the entry.
UniProt P0DPI0, 2-448 limits assumed: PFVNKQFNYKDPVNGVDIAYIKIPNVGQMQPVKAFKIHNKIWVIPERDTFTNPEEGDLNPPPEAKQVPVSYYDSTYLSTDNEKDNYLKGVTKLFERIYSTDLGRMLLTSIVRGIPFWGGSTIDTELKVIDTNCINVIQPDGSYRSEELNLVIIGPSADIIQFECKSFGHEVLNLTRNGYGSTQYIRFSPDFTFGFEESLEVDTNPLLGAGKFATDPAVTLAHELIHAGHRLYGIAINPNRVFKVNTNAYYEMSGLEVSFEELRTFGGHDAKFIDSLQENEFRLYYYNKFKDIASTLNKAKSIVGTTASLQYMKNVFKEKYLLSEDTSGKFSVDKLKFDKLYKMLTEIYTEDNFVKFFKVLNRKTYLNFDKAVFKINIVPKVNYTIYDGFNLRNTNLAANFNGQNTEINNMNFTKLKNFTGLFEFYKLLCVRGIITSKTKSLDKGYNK

Target: Botulinum neurotoxin type A (Clostridium botulinum, UniProt P0DPI0)
Test: Inhibition of Clostridium botulinum neurotoxin serotype A light chain metalloprotease activity

SMILES | IC50 [µM]
CC(=O)O[C@@H]1CC[C@@]2(C)[C@@H](C1)C[C@@H](OC(C)=O)[C@@H]1[C@@H]2C[C@H](OC(C)=O)[C@]2(C)[C@@H]([C@H](C)CCCNCCNc3ccnc4cc(Cl)ccc34)CC[C@@H]12 | 10
Clc1ccc2c(NCCNCC34CC5CC(CC(C5)C3)C4)ccnc2c1 | 18.9
Clc1ccc2c(NCCCNCC34CC5CC(CC(C5)C3)C4)ccnc2c1 | 32
Clc1ccc2c(NCCCNCCC34CC5CC(CC(C5)C3)C4)ccnc2c1 | 50.1
Clc1ccc2c(NCCNCCC34CC5CC(CC(C5)C3)C4)ccnc2c1 | 11.8
